A mixed list of measured activities; the numbers were collected in NIAID ChemDB.

Shared fields: target-level tests; species: Hepatitis C virus

ICn is the concentration giving n% inhibition.

structure,target,measure,tested at,result
O=C(O)CCC(=O)Nc1cnn2c(C3CCCCC3)c(-c3ccc(OCc4ccccc4)cc3)cnc12,RNA-dependent RNA polymerase,IC50,,1–10 µM
O=C(O)C1Cc2ccccc2CN1C(=O)c1ccc2c(c1)nc(-c1ccc3nc(-c4ccccc4)cnc3c1)n2C1CCCCC1,NS5B polymerase,inhibition,33 µM,94.81%
O=C(O)c1cc2nc(-c3ccc(Cl)cc3Cl)cc(-c3ccc(F)cc3)n2n1,RNA-dependent RNA polymerase,IC50,,>10 µM
COCCOc1ccc(-c2ccccc2)c(-c2ccc3cc(-c4nc5cc(C(=O)O)ccc5n4C4CCCCC4)ccc3n2)c1,NS5B polymerase,inhibition,100 µM,96.65%
O=C(O)c1nc(-c2ccsc2)[nH]c(=O)c1O,HCV polymerase,IC50,,<25 µM
CS(=O)c1ccc(-c2cc(NC(=O)c3ccc(Cl)cc3Cl)c(C(=O)O)s2)cc1,NS3 ATPase,IC50,,<5 µM
CNC(=O)c1c(-c2ccc(F)cc2)oc2cc(C(C)(C)N)c(OC(C)C)cc12,Nonstructural protein 5B,IC50,,≤0.5 µM
O=C(O)c1ccc2c(c1)nc(-c1ccc3nc(-c4ccccc4Br)c(-c4ccccc4)cc3c1)n2C1CCCCC1,NS5B polymerase,inhibition,100 µM,99.09%
NCCCCCC(=O)Nc1ccsc1-c1nc(C(=O)O)c(O)c(=O)[nH]1,HCV polymerase,IC50,,<25 µM
O=C(O)c1cc2nc(-c3ccc(-c4ccccc4)cc3)c(C3CCCCC3)c(=O)n2[nH]1,RNA-dependent RNA polymerase,IC50,,1–10 µM
CCCC(=O)N(Cc1ccc(C)cc1)c1cc(-c2ccccc2)sc1C(=O)O,NS3 ATPase,IC50,,5–20 µM
O=C(NCc1ccc(F)cc1)Nc1ccccc1-c1nc(C(=O)O)c(O)c(=O)[nH]1,HCV polymerase,IC50,,<100 µM
Cc1ccc(S(=O)(=O)Nc2cc(C(C)(C)C)sc2C(=O)O)c(C)c1,NS3 ATPase,IC50,,5–20 µM
O=C(O)c1ccc2c(c1)nc(-c1ccc3nc(C(=O)Nc4ccc(Cl)cc4)ccc3c1)n2C1CCCCC1,NS5B polymerase,inhibition,100 µM,100%
O=C(O)c1cc2nc(-c3ccccc3OCc3ccccc3)cc(-c3cccc(Cl)c3)n2n1,RNA-dependent RNA polymerase,IC50,,>10 µM
NC(C(=O)Nc1cscc1-c1nc(C(=O)O)c(O)c(=O)[nH]1)c1ccccc1,HCV polymerase,IC50,,<25 µM
CCC(CC)n1c(-c2ccc3nc(-c4cc(OC)ccc4-c4ccc(Cl)cc4)ccc3c2)nc2cc(C(=O)O)ccc21,NS5B polymerase,inhibition,33 µM,102%
CNC(=O)c1c(-c2ccc(F)cc2)oc2cc(-c3ccco3)c(OC(C)C)cc12,Nonstructural protein 5B,IC50,,≤0.5 µM
O=C(O)c1ccc2c(c1)nc(-c1ccc3nc(-c4ccccc4)c(-c4ccccc4)nc3c1)n2C1CCCCC1,NS5B polymerase,inhibition,100 µM,98.06%
O=C(NCCc1ccccc1Cl)Nc1ccsc1-c1nc(C(=O)O)c(O)c(=O)[nH]1,HCV polymerase,IC50,,<25 µM
O=C(O)c1cc2nc(-c3cccc(F)c3)c(C3CCCCC3)c(=O)n2[nH]1,RNA-dependent RNA polymerase,IC50,,<1 µM
CCc1cc2c(C(=O)NC)c(-c3ccc(F)cc3)oc2cc1C1CCCN1C(C)=O,Nonstructural protein 5B,IC50,,≤0.5 µM
COC(=O)c1cc2nc(C)cc(C(F)(F)F)n2n1,RNA-dependent RNA polymerase,IC50,,>10 µM
Cc1ccccc1CN(C(=O)C1CCC1)c1cc(-c2ccccc2)sc1C(=O)O,NS3 ATPase,IC50,,5–20 µM
O=C(NC(Cc1ccc(-c2ccccc2)cc1)C(=O)O)c1ccc2c(c1)nc(-c1ccc3nc(-c4ccccc4)cnc3c1)n2C1CCCCC1,NS5B polymerase,inhibition,33 µM,95.74%
O=C(Nc1cscc1-c1nc(C(=O)O)c(O)c(=O)[nH]1)NS(=O)(=O)c1ccccc1C(F)(F)F,HCV polymerase,IC50,,<25 µM
CNC(=O)c1c(-c2ccc(F)cc2)oc2cc(C(C)=O)c(OC)cc12,Nonstructural protein 5B,IC50,,≤0.5 µM
O=C(O)c1sc(-c2ccccc2)cc1NC(=O)N1CCc2ccccc2C1,NS3 ATPase,IC50,,5–20 µM
COC(=O)c1cc2ncc(-c3ccc(OC)cc3)c(C3CCCCC3)n2n1,RNA-dependent RNA polymerase,IC50,,>10 µM
O=C(Nc1cccc(-c2nc(C(=O)O)c(O)c(=O)[nH]2)c1)NC(Cc1ccccc1)c1ccccc1,HCV polymerase,IC50,,<100 µM
COc1ccc(-c2ccc(Cl)cc2)c(-c2ccc3cc(-c4[nH]c5cc(C(=O)O)ccc5c4C4CCCCC4)ccc3n2)c1,NS5B polymerase,inhibition,33 µM,97.55%

The last 3 rows once more:

structure,target,measure,tested at,result
COC(=O)c1cc2ncc(-c3ccc(OC)cc3)c(C3CCCCC3)n2n1,RNA-dependent RNA polymerase,IC50,,>10 µM
O=C(Nc1cccc(-c2nc(C(=O)O)c(O)c(=O)[nH]2)c1)NC(Cc1ccccc1)c1ccccc1,HCV polymerase,IC50,,<100 µM
COc1ccc(-c2ccc(Cl)cc2)c(-c2ccc3cc(-c4[nH]c5cc(C(=O)O)ccc5c4C4CCCCC4)ccc3n2)c1,NS5B polymerase,inhibition,33 µM,97.55%

Two numbers with a dash give a range or band. Percent inhibition refers to the dose given; in toxicity tests it is the harm to the cells. Lines come from different laboratories, so protocols vary. An empty or dashed field is not shown.